# Results: patent US20250320281A1 (published 2025)
# How the values were obtained:
# Assay in all cases: cell-based or functional assay
# [1] = molecular target: HIV-1 Env of isolate 92BR020 (pseudovirus) (HIV-1)
# [2] = molecular target: HIV-1 Env of isolate MGRM-C-026 (pseudovirus) (HIV-1)
# [3] = molecular target: HIV-1 94UG103 Env on pseudotyped virus (HIV-1 isolate 94UG103)
# [4] = molecular target: HIV-1 NL43 Env on pseudotyped virus (HIV-1 NL43)
# [5] = molecular target: HIV-1 92TH021 Env on pseudotyped virus (HIV-1 isolate 92TH021)
# [6] = molecular target: HIV-1 92BR020 Env on pseudotyped virus (HIV-1 isolate 92BR020)
# [7] = molecular target: HIV-1 SF162 Env on pseudotyped virus (HIV-1 isolate SF162)
# [8] = molecular target: HIV-1 IAVI_C22 Env on pseudotyped virus (HIV-1 isolate IAVI_C22)
# [9] = molecular target: HIV-1 93IN905 Env on pseudotyped virus (HIV-1 isolate 93IN905)
# [10] = molecular target: HIV-1 92TH021 envelope glycoprotein (Env) on pseudovirus (HIV-1)
# [11] = molecular target: HIV-1 92UG005 envelope glycoprotein (Env) on pseudovirus (HIV-1)
# [12] = molecular target: HIV-1 94UG103 envelope glycoprotein (Env) on pseudovirus (HIV-1)
# [13] = molecular target: HIV-1 93IN905 envelope glycoprotein (Env) on pseudovirus (HIV-1)
# [14] = molecular target: HIV-1 APV-13 envelope glycoprotein (Env) on pseudovirus (HIV-1)
# [15] = molecular target: HIV-1 92UG024 envelope glycoprotein (Env) on pseudovirus (HIV-1)
# [16] = molecular target: HIV-1 APV-17 envelope glycoprotein (Env) on pseudovirus (HIV-1)
# [17] = molecular target: HIV-1 IAVI-C22 envelope glycoprotein (Env) on pseudovirus (HIV-1)
# [18] = molecular target: HIV-1 IAVI-C3 envelope glycoprotein (Env) on pseudovirus (HIV-1)
# [19] = molecular target: HIV-1 APV-6 envelope glycoprotein (Env) on pseudovirus (HIV-1)
# [20] = molecular target: HIV-1 CMU02 envelope glycoprotein (Env) on pseudovirus (HIV-1)
# [21] = molecular target: HIV-1 92RW020 envelope glycoprotein (Env) on pseudovirus (HIV-1)
# [22] = molecular target: HIV-1 IAVI-C18 envelope glycoprotein (Env) on pseudovirus (HIV-1)
# [23] = molecular target: HIV-1 92BR020 envelope glycoprotein (Env) on pseudovirus (HIV-1)
# [24] = molecular target: HIV-1 93UG077 envelope glycoprotein (Env) on pseudovirus (HIV-1)
# [25] = molecular target: HIV-1 Env of isolate MG RM-A-006 (subtype A) (HIV-1)
# [26] = molecular target: HIV-1 Env of isolate MG RM-A-012 (subtype A) (HIV-1)
# [27] = molecular target: HIV-1 Env of isolate MG RM-A-008 (subtype A) (HIV-1)
# [28] = molecular target: HIV-1 Env of isolate MG RM-A-011 (subtype A) (HIV-1)
# [29] = molecular target: HIV-1 Env of isolate MG RM-A-007 (subtype A) (HIV-1)
# [30] = molecular target: HIV-1 Env of isolate MG RM-A-009 (subtype A) (HIV-1)
binder,measurement,setting,value
"4838_L06 (PGT-121) (antibody, V domains shown) VH: QMQLQESGPGLVKPSETLSLTCSVSGASISDSYWSWIRRSPGKGLEWIGYVHKSGDTNYSPSLKSRVNLSLDTSKNQVSLSLVAATAADSGKYYCARTLHGRRIYGIVAFNEWFTYFYMDVWGNGTQVTVSS VL: SDISVAPGETARISCGEKSLGSRAVQWYQHRAGQAPSLIIYNNQDRPSGIPERFSGSPDSPFGTTATLTITSVEAGDEADYYCHIWDSRVPTKWVFGGGTTLTVL",Primary Neutralization Index (B cell culture supernatant),[1],4.9
same,Primary Neutralization Index (B cell culture supernatant),[2],996
"1456_P20 (PG20) (antibody, V domains shown) VH: QVRLVQSGPEVKKPGSSVTVSCQASGGTFSSYAFTWVRQAPGQGLEWLGMVTPIFGEAKYSQRFEGRVTITADESTSTTSIELRGLTSEDTAIYYCARDRRAVPIATDNWLDPWGQGTLVTVSS VL: DIQLTQSPSSLSASVGDRVSITCRASQTINNYLNWYQQTPGKAPKLLIYGASNLQNGVPSRFSGSGSGTDFTLTISSLQPEDFATYYCQQSFSTPRTFGQGTRLDIKR [1456_P20 (PG20), listing 1 of 2 here]",Neutralizing Antibody Assay: IC50; Virus/Ab Incubation 1 hour,[3],> 50 µg/mL
same,Neutralizing Antibody Assay: IC50; Virus/Ab Incubation 18 hour,[3],> 50 µg/mL
same,Neutralizing Antibody Assay: IC50; Virus/Ab Incubation 1 hour,[4],0.2 µg/mL
same,Neutralizing Antibody Assay: IC50; Virus/Ab Incubation 18 hour,[4],0.05 µg/mL
same,Neutralizing Antibody Assay: IC50; Virus/Ab Incubation 1 hour,[5],> 50 µg/mL
same,Neutralizing Antibody Assay: IC50; Virus/Ab Incubation 18 hour,[5],> 50 µg/mL
same,Neutralizing Antibody Assay: IC50; Virus/Ab Incubation 1 hour,[6],> 50 µg/mL
same,Neutralizing Antibody Assay: IC50; Virus/Ab Incubation 18 hour,[6],> 50 µg/mL
same,Neutralizing Antibody Assay: IC50; Virus/Ab Incubation 1 hour,[7],0.195 µg/mL
same,Neutralizing Antibody Assay: IC50; Virus/Ab Incubation 18 hour,[7],0.0661 µg/mL
same,Neutralizing Antibody Assay: IC50; Virus/Ab Incubation 1 hour,[8],> 50 µg/mL
same,Neutralizing Antibody Assay: IC50; Virus/Ab Incubation 18 hour,[8],> 50 µg/mL
same,Neutralizing Antibody Assay: IC50; Virus/Ab Incubation 1 hour,[9],> 50 µg/mL
same,Neutralizing Antibody Assay: IC50; Virus/Ab Incubation 18 hour,[9],3.84 µg/mL
"1460_G14 (PGG14) (antibody, V domains shown) VH: QVLLVQSGTEVKKPGSSVKVSCQASGGAFSSYAFSWVRQAPGQGLEWMGMITPVFGETKYAPRFQGRLTLTAEESLSTTYMELRSLTSDDTAFYYCTRDRRVVPMATDNWLDPWGQGTLVTVSS VL: DIQLTQSPSSLSASVGDRVTVTCRASQTIHTYLNWYQQIPGKAPKLLIYGASTLQSGVPSRFSGSGSGTDFTLTINSLQPEDFATYYCQQSYSTPRTFGQGTRLDIKR","IC50, pseudovirus neutralization",[10],> 50 µg/mL
same,"IC50, pseudovirus neutralization",[11],> 50 µg/mL
same,"IC50, pseudovirus neutralization",[12],> 50 µg/mL
same,"IC50, pseudovirus neutralization",[13],> 50 µg/mL
same,"IC50, pseudovirus neutralization",[14],> 50 µg/mL
same,"IC50, pseudovirus neutralization",[15],> 50 µg/mL
same,"IC50, pseudovirus neutralization",[16],> 50 µg/mL
same,"IC50, pseudovirus neutralization",[17],> 50 µg/mL
same,"IC50, pseudovirus neutralization",[18],> 50 µg/mL
same,"IC50, pseudovirus neutralization",[19],> 50 µg/mL
same,"IC50, pseudovirus neutralization",[20],> 50 µg/mL
same,"IC50, pseudovirus neutralization",[21],> 50 µg/mL
same,"IC50, pseudovirus neutralization",[22],> 50 µg/mL
same,"IC50, pseudovirus neutralization",[23],> 50 µg/mL
same,"IC50, pseudovirus neutralization",[24],> 50 µg/mL
"1456_P20 (PG20) (antibody, V domains shown) VH: QVRLVQSGPEVKKPGSSVTVSCQASGGTFSSYAFTWVRQAPGQGLEWLGMVTPIFGEAKYSQRFEGRVTITADESTSTTSIELRGLTSEDTAIYYCARDRRAVPIATDNWLDPWGQGTLVTVSS VL: DIQLTQSPSSLSASVGDRVSITCRASQTINNYLNWYQQTPGKAPKLLIYGASNLQNGVPSRFSGSGSGTDFTLTISSLQPEDFATYYCQQSFSTPRTFGQGTRLDIKR [1456_P20 (PG20), listing 2 of 2 here]","IC50, pseudovirus neutralization",[10],> 50 µg/mL
same,"IC50, pseudovirus neutralization",[11],> 50 µg/mL
same,"IC50, pseudovirus neutralization",[12],> 50 µg/mL
same,"IC50, pseudovirus neutralization",[13],> 50 µg/mL
same,"IC50, pseudovirus neutralization",[14],> 50 µg/mL
same,"IC50, pseudovirus neutralization",[15],> 50 µg/mL
same,"IC50, pseudovirus neutralization",[16],> 50 µg/mL
same,"IC50, pseudovirus neutralization",[17],> 50 µg/mL
same,"IC50, pseudovirus neutralization",[18],> 50 µg/mL
same,"IC50, pseudovirus neutralization",[20],> 50 µg/mL
same,"IC50, pseudovirus neutralization",[21],> 50 µg/mL
same,"IC50, pseudovirus neutralization",[22],> 50 µg/mL
same,"IC50, pseudovirus neutralization",[23],> 50 µg/mL
same,"IC50, pseudovirus neutralization",[24],> 50 µg/mL
"4993_K13 (PGT-141) (antibody, V domains shown) VH: QVQLVQSGPEVKKPGSSVKVSCKASGNTFSKYDVHWVRQATGQGLEWVGWMSHEGDKTESAQRFKGRVTFTRDTSASTAYMELRGLTSDDTAIYYCTRGSKHRLRDYVLYDDYGLINYQEWNDYLEFLDVWGHGTAVTVSS VL: DTVVTQSPLSLPVTPGEAASMSCSSTQSLRHSNGANYLAWYQHKPGQSPRLLIRLGSQRASGVPDRFSGSGSGTHFTLKISRVEAEDAAIYYCMQGLNRPWTFGKGTKLEIK","IC50 (µg/mL), pseudovirus neutralization",[25],> 50 µg/mL
same,"IC50 (µg/mL), pseudovirus neutralization",[26],> 50 µg/mL
same,"IC50 (µg/mL), pseudovirus neutralization",[27],> 50 µg/mL
same,"IC50 (µg/mL), pseudovirus neutralization",[28],> 50 µg/mL
same,"IC50 (µg/mL), pseudovirus neutralization",[29],> 50 µg/mL
"4995_E20 (PGT-142) (antibody, V domains shown) VH: QVQLVQSGPEVKKPGSSVKVSCKASGNTFSKYDVHWVRQATGQGLEWVGWISHERDKTESAQRFKGRVTFTRDTSATTAYMELRGLTSDDTAIYYCTRGSKHRLRDYVLYDDYGLINYQEWNDYLEFLDVWGHGTAVTVSS VL: DTVVTQSPLSLPVTPGEAASMSCSSTQSLRHSNGANYLAWYQHKPGQSPRLLIRLGSQRASGVPDRFSGSGSGTHFTLKISRVEAEDAAIYYCMQGLNRPWTFGKGTKLEIK","IC50 (µg/mL), pseudovirus neutralization",[25],> 50 µg/mL
same,"IC50 (µg/mL), pseudovirus neutralization",[26],> 50 µg/mL
same,"IC50 (µg/mL), pseudovirus neutralization",[27],> 50 µg/mL
same,"IC50 (µg/mL), pseudovirus neutralization",[28],> 50 µg/mL
same,"IC50 (µg/mL), pseudovirus neutralization",[29],> 50 µg/mL
"4980_N08 (PGT-143) (antibody, V domains shown) VH: QVQLEQSGAEVKKPGSSVKVSCKASGNTFSKYDVHWVRQATGQGLEWVGWMSHEGDKTESAQRFKGRVTFTRDTSASTAYMELRGLTSDDTAIYYCTRGSKHRLRDYVLYDDYGLINYQEWNDYLEFLDVWGHGTAVTVSS VL: DTVVTQSPLSLPVTPGEAASMSCTSTQSLRHSNGANYLAWYQHKPGQSPRLLIRLGSQRASGVPDRFSGSGSGTHFTLKISRVEPEDAAIYYCMQGLNRPWTFGKGTKLEIK","IC50 (µg/mL), pseudovirus neutralization",[25],> 50 µg/mL
same,"IC50 (µg/mL), pseudovirus neutralization",[26],> 50 µg/mL
same,"IC50 (µg/mL), pseudovirus neutralization",[27],> 50 µg/mL
same,"IC50 (µg/mL), pseudovirus neutralization",[30],0.05 µg/mL
same,"IC50 (µg/mL), pseudovirus neutralization",[28],> 50 µg/mL
same,"IC50 (µg/mL), pseudovirus neutralization",[29],> 50 µg/mL
"4995_P16 (PGT-145) (antibody, V domains shown) VH: QVQLVQSGAEVKKPGSSVKVSCKASGNSFSNHDVHWVRQATGQGLEWMGWMSHEGDKTGLAQKFQGRVTITRDSGASTVYMELRGLTADDTAIYYCLTGSKHRLRDYFLYNEYGPNYEEWGDYLATLDVWGHGTAVTVSS VL: EVVITQSPLFLPVTPGEAASLSCKCSHSLQHSTGANYLAWYLQRPGQTPRLLIHLATHRASGVPDRFSGSGSGTDFTLKISRVESDDVGTYYCMQGLHSPWTFGQGTKVEIK","IC50 (µg/mL), pseudovirus neutralization",[25],> 50 µg/mL
same,"IC50 (µg/mL), pseudovirus neutralization",[27],> 50 µg/mL
same,"IC50 (µg/mL), pseudovirus neutralization",[29],> 50 µg/mL
